Measured values taken from paper PMC10433830.

How the values were obtained:
[1] = test system: CarR D55A (Vibrio vulnificus MO6-24/O); test: EMSA; conditions: poly(dI-dC), affinity stated similar to CarR, 40 mM Tris-Cl pH 8.0, 50 mM NaCl, 1 mM DTT, 100 uM EDTA, 0.1 ug/uL BSA, 0.05 ug poly(dI-dC) in 20 uL, 25 C, 30 min, probe 5 nM (EMSA) or 40 nM (DNase I), recombinant protein, residues 1-234, protein details: His6, probe letters rebuilt from the primers and the genome
[2] = test system: CarR (Vibrio vulnificus MO6-24/O); test: EMSA; conditions: poly(dI-dC), unlabeled self-competitor competes dose-dependently, 40 mM Tris-Cl pH 8.0, 50 mM NaCl, 1 mM DTT, 100 uM EDTA, 0.1 ug/uL BSA, 0.05 ug poly(dI-dC) in 20 uL, 25 C, 30 min, probe 5 nM (EMSA) or 40 nM (DNase I), recombinant protein, residues 1-234, protein details: His6, probe letters rebuilt from the primers and the genome
[3] = test system: CarR (Vibrio vulnificus MO6-24/O); test: DNase I footprinting; conditions: 1000 nM CarR, 40 nM DNA, poly(dI-dC), 40 mM Tris-Cl pH 8.0, 50 mM NaCl, 1 mM DTT, 100 uM EDTA, 0.1 ug/uL BSA, 0.05 ug poly(dI-dC) in 20 uL, 25 C, 30 min, probe 5 nM (EMSA) or 40 nM (DNase I), recombinant protein, residues 1-234, protein details: His6, probe letters rebuilt from the primers and the genome
[4] = label: 6-FAM (on PCARR-R strand)
[5] = label: 6-FAM (on PEPTA-R strand)

Measured: binding result

CATCTGTTGGAGCTTGATGTCATCTTCAACAATGATCAACTTCTGGTCTTCTACCATGGTGTCATTCTATGCTTTGTTTTGTTGTTATATTGAGTACGTCATCAGAAGTACTGATATGAAACGAGAAGTTATACGACTCACTTCACCTTTTCAAATATAAATGACCACCAAGGAGATTGACAGCAGGAGGTTATCAGAATGGGCACAAAATCAATGTCGTCGTTTTGTATGACTTTGTCATGATCTTGAAGGGGCAACAGACAATGAGGCGCACACCTGAGCGCTTAATACGCTCAGGTGTGCTTGGTCAATTGAAGGGGAACTGGCGGTGAGTTTAGTAAGCTACGCCAATGCGCTGATTGAGGTACTGGTTCG (double strand) [carRS operon upstream region]
binds: [1]; [4] | [2]; [4] | [3]; 27-bp protection, label: 6-FAM (on PCARR-R strand)

GCGGTGATGGTTAGCGCGGCGGTCAGAAGAATTTCCTGACGAAAAGCGGCCTCGTTAATCCATGCGGCTTTCAAGCCTTTCATTGAATAGCCCGTTGCGTCGACAATACGACGAATACCTGTTTTTCCTGGTTTCAAAATATAACCCTACTACTTGTTATTAATGGGAAGCTCAAAGCTGGTTGTGGCAAATGAGTAGTTCGCGGTCGCTAAGCTACTTCACCGCTCGTCAAGCAAATGTGAAAAGAAGTGAAAATAGAGGCGTTGGGAAAGATTAAGCTCGTCAACTGCGTGTTTCGGCACCAGTAACGTAAGAATCACAACGTAAAGTTGCCCTTGTTATCACTTCTATCAATGACTAGGTTGAAATGTACAGCGTTTTATTATGGAAATCAGTCACGCACGTGTAATGAATTGTCGCGCTTTGTAAGATTGGTAAGGTGAATGATGCCGAGGGCATCATTCTGTGTTAGAGGGAAAAACGAATGATGAAGCAGGCAC (double strand) [eptA operon upstream region]
binds: [1]; [5] | [2]; [5] | [3]; 35-bp protection, label: 6-FAM (on PEPTA-R strand)

Construct, isoform or probe ends are uncertain for at least one entry.
